Anti-infective test results gathered from many reports (values: NIAID ChemDB through PubChem).

Shared fields: tests in culture

Blank or dashed fields: not listed here. Inhibition is in % at the dose shown (toxicity tests: loss of growth or viability). MIC50, MIC90 and the like: level of inhibition, or share of isolates inhibited. Zone: diameter of growth inhibition. a–b is a range or a potency band. Rows are shuffled and stem from different studies.

{"smiles": "CCCCN1C(=O)C2(C3=C(CN2C)C(=O)c2ccccc2C3=O)c2ccccc21", "measure": "MIC", "method": "agar diffusion", "species": "Mycobacterium luteus", "result": "250 µg/mL"}
{"smiles": "CN(C)[C@@H]1C(=O)C(C(N)=O)=C(O)[C@@]2(O)C(=O)C3=C(O)c4c(O)cccc4[C@@](C)(O)[C@H]3C[C@@H]12", "strain": "37 clinical isolates", "measure": "MIC50", "species": "Mycobacterium marinum", "result": "1.5 µg/mL"}
{"smiles": "CCCc1c2c([nH]c(=O)c1C)C(=O)c1[nH]c(=O)c(C)c(CCC)c1C2=O", "strain": "L948 (ATCC 19977)", "measure": "MIC90", "method": "resazurin / fluorescence", "species": "Mycobacterium abscessus", "result": ">7.5 µg/mL"}
{"smiles": "C[C@H]1c2cccc(O)c2C(O)=C2C(=O)[C@]3(O)C(O)=C(C(N)=O)C(=O)[C@@H](N(C)C)[C@@H]3[C@@H](O)[C@@H]21", "strain": "37 clinical isolates", "measure": "MIC90", "species": "Mycobacterium marinum", "result": "6 µg/mL"}
{"smiles": "O=C(Nc1ccc(Cl)cc1)c1cc(Cl)ccc1OP(=O)(Oc1ccccc1)Oc1ccccc1", "conditions": "21 d", "strain": "My 235/80", "measure": "MIC", "species": "Mycobacterium kansasii", "result": "8 µM"}
{"smiles": "Cc1ccc2c(c1)C1(C(=O)N2)C2=C(CN1C)C(=O)c1ccccc1C2=O", "measure": "zone", "method": "agar diffusion", "species": "Mycobacterium luteus", "dose": "50 µg/mL", "result": "13 mm"}
{"smiles": "O=C(Nc1ccccc1)c1ccccc1OP(=O)(c1ccccc1)c1ccccc1", "conditions": "7 d", "strain": "My 235/80", "measure": "MIC", "species": "Mycobacterium kansasii", "result": "62.5 µM"}
{"smiles": "N/C(=N\\N=C\\c1ccccc1OCc1ccccc1)c1ccccn1", "measure": "inhibition", "species": "Mycobacterium fortuitum", "dose": "100 µM", "result": "4.2%"}
{"smiles": "CCN1CCN(c2c(F)cc3c(=O)c(C(=O)O)cn(C4CC4)c3c2OC)CC1", "strain": "BCG-CX2 (A90V D94N)", "measure": "MIC", "species": "Mycobacterium bovis", "result": "5.5 µg/mL"}
{"smiles": "CCCNC(=O)Nc1ccc(S(=O)(=O)Nc2cc(C)on2)cc1", "conditions": "7 d", "strain": "235/80", "measure": "MIC100", "method": "broth dilution / absorbance", "species": "Mycobacterium kansasii", "result": "500 µM"}
{"smiles": "NC[C@H]1O[C@H](O[C@H]2[C@H](O)[C@@H](O[C@H]3O[C@H](CO)[C@@H](O)[C@H](N)[C@H]3O)[C@H](N)C[C@@H]2N)[C@H](O)[C@@H](O)[C@@H]1O", "strain": "Isolate C-35", "measure": "MIC", "species": "Mycobacterium avium complex", "result": "400 µg/mL"}
{"smiles": "N/N=C(\\N)c1ccccn1", "measure": "inhibition", "species": "Mycobacterium fortuitum", "dose": "1000 µM", "result": "12.1%"}
{"smiles": "O=C1c2cc(Br)ccc2OP(=O)(c2ccccc2)N1c1ccc(C(F)(F)F)cc1", "conditions": "7 d", "strain": "My 235/80", "measure": "MIC", "species": "Mycobacterium kansasii", "result": "4 µM"}
{"smiles": "CCn1cc(C(=O)O)c(=O)c2cc(F)c(N3CCNCC3)nc21", "strain": "16 isolates", "measure": "MIC50", "species": "Mycobacterium avium intracellulare", "result": "100 µg/mL"}
{"smiles": "CCN1CCN(c2cc3c(cc2F)c(=O)c(C(=O)O)cn3C2CC2)CC1", "strain": "BCG-CX1 (D94N)", "measure": "MIC", "species": "Mycobacterium bovis", "result": "10.5 µg/mL"}
{"smiles": "O=C(Nc1ccc(Br)cc1)c1cc(Cl)ccc1OP(=O)(OCc1ccccc1)OCc1ccccc1", "conditions": "21 d", "strain": "My 235/80", "measure": "MIC", "species": "Mycobacterium kansasii", "result": "32 µM"}
{"smiles": "CCOc1cc(Cc2cnc(N)nc2N)cc(OCC)c1-n1cccc1", "strain": "Isolate 8756", "measure": "MBC", "species": "Mycobacterium ulcerans", "result": "1 µg/mL"}
{"smiles": "O=C(Nc1ccc(C(F)(F)F)cc1)c1cc(Cl)ccc1OP(=O)(c1ccccc1)c1ccccc1", "conditions": "21 d", "strain": "My 235/80", "measure": "MIC", "species": "Mycobacterium kansasii", "result": "4 µM"}
{"smiles": "CN1CC2=C(C(=O)c3ccccc3C2=O)C12C(=O)Nc1ccccc12", "measure": "zone", "method": "agar diffusion", "species": "Mycobacterium luteus", "dose": "50 µg/mL", "result": "13 mm"}
{"smiles": "CCCCCNC(=O)Nc1ccc(S(=O)(=O)Nc2cc(C)on2)cc1", "conditions": "7 d", "strain": "6509/96 clinical isolate", "measure": "MIC100", "method": "broth dilution / absorbance", "species": "Mycobacterium kansasii", "result": "250 µM"}
{"smiles": "CN(C)c1cc(NC(=O)CNC(C)(C)C)c(O)c2c1C[C@H]1C[C@H]3[C@H](N(C)C)C(=O)C(C(N)=O)=C(O)[C@@]3(O)C(=O)C1=C2O", "strain": "X34", "measure": "MIC", "method": "broth dilution", "species": "Mycobacterium massiliense", "result": "1 µg/mL"}
{"smiles": "CCCCCCCCCCNC(=O)Nc1ccc(S(=O)(=O)Nc2cc(C)on2)cc1", "conditions": "7 d", "strain": "6509/96 clinical isolate", "measure": "MIC100", "method": "broth dilution / absorbance", "species": "Mycobacterium kansasii", "result": "125 µM"}
{"smiles": "Cc1cc(-c2cc3c(cc2F)c(=O)c(C(=O)O)cn3C2CC2)cc(C)n1", "strain": "453", "measure": "MBC", "species": "Mycobacterium avium", "result": "2 µg/mL"}
{"smiles": "CCCCCCCNC(=O)Nc1ccc(S(=O)(=O)Nc2cc(C)on2)cc1", "conditions": "14 d", "strain": "6509/96 clinical isolate", "measure": "MIC100", "method": "broth dilution / absorbance", "species": "Mycobacterium kansasii", "result": "4 µM"}
{"smiles": "CC1CN(c2cc3c(cc2F)c(=O)c(C(=O)O)cn3C2CC2)CCN1", "strain": "BCG-CX2 (A90V D94N)", "measure": "MIC", "species": "Mycobacterium bovis", "result": "25 µg/mL"}
{"smiles": "CCN1C(=O)C2(C3=C(C(=O)c4ccccc4C3=O)C3CCCN32)c2ccccc21", "measure": "MIC", "method": "agar diffusion", "species": "Mycobacterium luteus", "result": "125 µg/mL"}
{"smiles": "COc1cc(Cc2cnc(N)nc2N)cc(OC)c1OCCCNc1ccc(S(=O)(=O)c2ccc(N)cc2)cc1", "strain": "Isolate 8756", "measure": "MIC", "species": "Mycobacterium ulcerans", "result": "1 µg/mL"}
{"smiles": "O=C(Nc1ccc(C(F)(F)F)cc1)c1cc(Br)ccc1OP(=O)(Oc1ccccc1)Oc1ccccc1", "conditions": "14 d", "strain": "My 235/80", "measure": "MIC", "species": "Mycobacterium kansasii", "result": "4 µM"}
{"smiles": "CCCCCCN1C(=O)C2(C3=C(CN2C)C(=O)c2ccccc2C3=O)c2ccccc21", "measure": "zone", "method": "agar diffusion", "species": "Mycobacterium luteus", "dose": "50 µg/mL", "result": "10 mm"}
{"smiles": "N/C(=N\\N=C1CCCCCCCCCCC1)c1ccccn1", "measure": "inhibition", "species": "Mycobacterium fortuitum", "dose": "100 µM", "result": "2.1%"}
{"smiles": "C#CCN1C(=O)C2(C3=C(CN2C)C(=O)c2ccccc2C3=O)c2ccccc21", "measure": "MIC", "method": "agar diffusion", "species": "Mycobacterium luteus", "result": "125 µg/mL"}
{"smiles": "NNC(=O)c1ccncc1", "strain": "JLS", "measure": "MIC", "species": "Mycobacterium spp.", "result": "0.02–0.1 µg/mL"}
{"smiles": "CC(C)(C)c1ccc(C=O)cc1", "measure": "inhibition", "species": "Mycobacterium fortuitum", "dose": "1000 µM", "result": "9.2%"}
{"smiles": "CC[C@H]1OC(=O)[C@H](C)[C@@H](O[C@H]2C[C@@](C)(OC)[C@@H](O)[C@H](C)O2)[C@H](C)[C@@H](O[C@@H]2O[C@H](C)C[C@H](N(C)C)[C@H]2O)[C@](C)(OC)C[C@@H](C)C(=O)[C@H](C)[C@@H](O)[C@]1(C)O", "strain": "37 clinical isolates", "measure": "MIC50", "species": "Mycobacterium marinum", "result": "0.5 µg/mL"}

A second listing of 5 rows from above:

smiles	conditions	strain	measure	method	species	dose	result
O=C(Nc1ccc(C(F)(F)F)cc1)c1cc(Cl)ccc1OP(=O)(c1ccccc1)c1ccccc1	21 d	My 235/80	MIC		Mycobacterium kansasii		4 µM
CCN1CCN(c2cc3c(cc2F)c(=O)c(C(=O)O)cn3C2CC2)CC1		BCG-CX1 (D94N)	MIC		Mycobacterium bovis		10.5 µg/mL
N/N=C(\N)c1ccccn1			inhibition		Mycobacterium fortuitum	1000 µM	12.1%
CCN1C(=O)C2(C3=C(C(=O)c4ccccc4C3=O)C3CCCN32)c2ccccc21			MIC	agar diffusion	Mycobacterium luteus		125 µg/mL
CC(C)(C)c1ccc(C=O)cc1			inhibition		Mycobacterium fortuitum	1000 µM	9.2%